A mixed list of measured activities; the numbers were collected in NIAID ChemDB.

All rows: growth or infection tests; agent: Mycobacterium bovis

Blank or dashed fields: not listed here.

SMILES	strain	method	read-out	result
COc1ccc2c(O)c(-c3ccccc3)c(=O)[nH]c2c1	AN5 lux	luminescence	MIC90	9.5 µM
Cc1cn(C/C=C\CN2c3cccc4c3N(CCC4)S2(=O)=O)c(=O)[nH]c1=O	BCG Pasteur	resazurin / absorbance	EC50	>160 µg/mL
c1ccc(Nc2cnc3cc4ccccc4cc3n2)cc1	BCG		EC50	<1 µM
COc1ccc2[nH]c(=O)c(-c3ccccc3)c(O)c2c1	AN5 lux	luminescence	MIC90	9.3 µM
NNC(=O)c1ccncc1	BCG (PMV261::KASAB)		MIC	0.05 µg/mL
Cc1cn(C/C=C\Cn2c(=O)n3c4c(cccc42)CCC3)c(=O)[nH]c1=O	BCG Pasteur	resazurin / absorbance	EC50	>160 µg/mL
O=c1c(-c2ccccc2)c(O)c2ccccc2n1-c1ccccc1	AN5 lux	luminescence	MIC90	9.5 µM
CC(=O)NC1Cc2cccc3c2n(c(=O)n3C/C=C\Cn2cc(C)c(=O)[nH]c2=O)C1	BCG Pasteur	resazurin / absorbance	EC50	>160 µg/mL
Clc1cccc(-c2cnc3cc4ccccc4cc3n2)c1	BCG		EC50	18 µM
Cc1c(O)c2ccccc2[nH]c1=O	AN5 lux	luminescence	MIC90	9.5 µM
Oc1ccc(-c2cnc3cc4ccccc4cc3n2)cc1O	BCG		EC50	32 µM
CCc1cc(C(N)=S)ccn1	BCG (PMV261::KASAB)		MIC	1.5 µg/mL
c1ccc(-c2nc3cc4ccccc4cc3nc2-c2ccccc2)cc1	BCG		EC50	7.7 µM
CC(C)CCOc1ccc(NC(=S)Nc2ccc(OCCC(C)C)cc2)cc1	BCG (PMV261::KASAB)		MIC	0.2 µg/mL

2 of the rows above, restated:

Clc1cccc(-c2cnc3cc4ccccc4cc3n2)c1 ; strain: BCG ; read-out: EC50 ; result: 18 µM
c1ccc(Nc2cnc3cc4ccccc4cc3n2)cc1 ; strain: BCG ; read-out: EC50 ; result: <1 µM

MIC50, MIC90 and the like: level of inhibition, or share of isolates inhibited. Lines come from different laboratories, so protocols vary. ECn is the concentration giving n% inhibition of infection, replication or growth.